Compound potency records, mixed from different reports. Data source: NIAID ChemDB in PubChem.

Common to all: tests in culture; agent: Mycobacterium avium intracellulare

A number after MIC or MFC names an inhibition level or a share of isolates.

| compound | setting | read-out | strain or isolate | method | result |
|---|---|---|---|---|---|
| CC1COc2c(N3CCN(C)CC3)c(F)cc3c(=O)c(C(=O)O)cn1c23 | - | MIC50 | 31 strains | - | 25 µg/mL |
| CCCCCc1ccc(C(=O)Oc2c(OC)cc3ccnc4c3c2N(C)C=C4)cc1 | - | EC50 | - | - | 1 µg/mL |
| COc1cc(C2=NCCN2)ccc1OC/C=C\COc1ccc(C2=NCCN2)cc1OC | - | MIC | ATCC 23068 | - | 50 µg/mL |
| CO[C@H]1/C=C/O[C@@]2(C)Oc3c(C)c(=O)c4c(O)c(c5oc6cc(N7CCCC7)ccc6nc5c4c3C2=O)NC(=O)/C(C)=C\C=C\[C@H](C)[C@H](O)[C@@H](C)[C@@H](O)[C@@H](C)[C@H](OC(C)=O)[C@@H]1C | - | MIC90 | - | - | 2.5 µg/mL |
| C[C@@H]1CN(c2c(F)c(N)c3c(=O)c(C(=O)O)cn(C4CC4)c3c2F)C[C@H](C)N1 | - | Median MIC50 | 292 strains | - | 1 µg/mL |
| C[C@@H]1CN(c2c(F)c(N)c3c(=O)c(C(=O)O)cn(C4CC4)c3c2F)C[C@H](C)N1 | - | MBC | ATCC 13950 | - | 0.6 µg/mL |
| CN[C@@H]1[C@H](O[C@H]2[C@H](O[C@H]3[C@H](O)[C@@H](O)[C@H](N=C(N)N)[C@@H](O)[C@@H]3N=C(N)N)O[C@@H](C)[C@]2(O)C=O)O[C@@H](CO)[C@H](O)[C@H]1O | - | MIC | N-846 (HIV-) | - | 4 µg/mL |
| CCNC(=O)[C@@H](NC(=O)Cc1ccccc1)[C@@H]1N[C@@H](C(=O)NCCNC(=O)[C@@H]2N[C@@H]([C@H](NC(=O)Cc3ccccc3)C(=O)NCC)SC2(C)C)C(C)(C)S1 | - | MIC | CIPT 140310021 | - | 25 µg/mL |
| CCC(C)S/C(N)=N/N=C/c1ccncc1 | - | MIC | CNCT D39/93 | - | 125 µM |
| CN(C)CCCN1c2ccccc2Sc2ccc(Cl)cc21 | - | MIC | R 8411 | - | 12.5 µg/mL |
| OCNC(=S)c1cnccn1 | - | MBC | ATCC 13950 | - | 100 µg/mL |
| COc1ccc(CNN(C(=O)c2ccncc2)C(=O)c2cnccn2)cc1 | - | MIC | ATCC 13950 | - | 8 µg/mL |
| COc1cc2ccnc3c2c(c1OC(=O)c1ccc(CCl)cc1)N(C)C=C3 | - | EC50 | - | - | 5 µg/mL |
| N[C@@H]1CN(c2c(F)cc3c(=O)c(C(=O)O)cn([C@@H]4C[C@@H]4F)c3c2Cl)CC12CC2 | - | MIC | - | - | 6.25 µg/mL |
| NNC(=O)c1ccncc1 | - | MIC | N-846 (HIV-) | - | 4 µg/mL |
| Cc1c(F)c(N2CCNC(C)C2)cc2c1c(=O)c(C(=O)O)cn2C1CC1 | - | MIC50 | 31 strains | - | 12.5 µg/mL |
| OCCN1CCN(CC/C=C2/c3ccccc3Sc3ccc(Cl)cc32)CC1 | - | MIC | ATCC 23432 | - | 12.5 µg/mL |
| NNC(=O)c1ccncc1 | clinical isolate | MIC | MNT1408 | MTT / broth dilution / absorbance | >0.5 µg/mL |
| COc1ccc(/C=N/N(C(=O)c2ccncc2)C(=O)c2cnccn2)cc1 | - | MIC | ATCC 13950 | - | >16 µg/mL |
| CO[C@H]1/C=C/O[C@@]2(C)Oc3c(C)c(O)c4c(=O)c(c5oc6cc(N7CCN(CC(C)C)CC7)cc(=O)c6nc5c4c3=C2O)NC(=O)/C(C)=C\C=C\[C@H](C)[C@H](O)[C@@H](C)[C@@H](O)[C@@H](C)[C@H](OC(C)=O)[C@@H]1C | - | MIC | N-752 (HIV-) | - | ≤0.0125 µg/mL |
| C/C=C(/C)C(=O)Oc1ccc(OC)cc1C1OC1C | - | MIC | ATCC 19709 | - | 5 µg/mL |
| O=C(NNC1=NS(=O)(=O)c2ccccc2N1c1ccccc1)c1cccnc1 | - | MIC | ATCC 13950 | - | >16 µg/mL |
| C[C@H]1COc2c(N3CCN(C)CC3)c(F)cc3c(=O)c(C(=O)O)cn1c23 | - | MIC90 | 31 strains | - | 25 µg/mL |
| COc1cc2ccnc3c2c(c1OC(=O)c1ccccc1C)N(C)C=C3 | - | EC50 | - | - | 5 µg/mL |
| O=C(NNC1=NS(=O)(=O)c2ccccc2N1c1ccccc1)c1cnccn1 | - | MIC | ATCC 13950 | - | >16 µg/mL |
| O=C(c1ccncc1)N(/N=C/c1cccc([N+](=O)[O-])c1)C(=O)c1cnccn1 | - | MIC | ATCC 13950 | - | >16 µg/mL |
| CCN1C(NNC(=O)c2cccnc2)=NS(=O)(=O)c2ccccc21 | - | MIC | ATCC 13950 | - | >16 µg/mL |
| CS/C(N)=N/N=C/c1ccc2ccccc2n1 | - | MIC | CNCTC D38/92 | - | >1000 µM |
| COc1cc2ccnc3c2c(c1OC(=O)CSc1ccccc1)N(C)C=C3 | - | EC50 | - | - | >15 µg/mL |
| Nc1nc(N)c2c(n1)NC(c1ccc3c(c1)OCO3)CC(c1ccc(F)cc1)=N2 | clinical isolate | MIC | MNT1408 | MTT / broth dilution / absorbance | >32 µg/mL |
| CO[C@H]1/C=C/O[C@@]2(C)Oc3c(C)c(O)c4c(=O)c(c5oc6cc(N7CCN(CC(C)C)CC7)cc(=O)c6nc5c4c3=C2O)NC(=O)/C(C)=C\C=C\[C@H](C)[C@H](O)[C@@H](C)[C@@H](O)[C@@H](C)[C@H](OC(C)=O)[C@@H]1C | - | MIC | N-260 | - | 0.025 µg/mL |
| CCCCS/C(N)=N/N=C/c1ccc2ccccc2n1 | - | MIC | CNCT D39/93 | - | 63 µM |
| CC1(C)S[C@@H]2[C@H](NC(=O)C(C(=O)O)c3ccccc3)C(=O)N2[C@H]1C(=O)O | - | MIC | CIPT 140310021 | - | 25 µg/mL |
| COc1cc2ccnc3c2c(c1OC(=O)c1ccc(F)cc1)N(C)C=C3 | - | MIC | - | - | 10 µg/mL |
| COc1cc(O)c2c(c1CC=C(C)C)O[C@H](c1c(CC=C(C)C)cc(OC)c(OC)c1CC=C(C)C)[C@@H](O)C2=O | - | MIC | ATCC 23068 | - | >100 µg/mL |
| C/C=C/c1ccc(OC(=O)/C(C)=C/C)cc1 | - | MBC | ATCC 19709 | - | >20 µg/mL |
| COc1cccc(C(=O)Oc2c(OC)cc3ccnc4c3c2N(C)C=C4)c1 | - | EC50 | - | - | 10 µg/mL |
| COc1ccc2c(c1)N(C[C@H](C)CN(C)C)c1ccccc1S2 | - | MIC | R 8588 | - | 50 µg/mL |
| NC[C@H]1O[C@H](O[C@H]2[C@H](O)[C@@H](O[C@H]3O[C@H](CO)[C@@H](O)[C@H](N)[C@H]3O)[C@H](N)C[C@@H]2N)[C@H](O)[C@@H](O)[C@@H]1O | - | MIC | CIPT 140310019 | - | 25 µg/mL |
| O=C(c1ccncc1)N(NCc1cccc(Cl)c1)C(=O)c1cnccn1 | - | MIC | ATCC 13950 | - | 8 µg/mL |
| CN1CCN(c2c(F)cc3c(=O)c(C(=O)O)cn(CCF)c3c2F)CC1 | - | MIC90 | N-260 | - | 100 µg/mL |
| CC1COc2c(C3(N)CC3)c(F)cc3c(=O)c(C(=O)O)cn1c23 | - | MIC50 | 31 strains | - | >100 µg/mL |
| O=C(NC1=NS(=O)(=O)c2ccccc2N1c1ccccc1)c1ccc(Cl)nc1 | - | MIC | ATCC 13950 | - | >16 µg/mL |
| Nc1nc(N)c2c(n1)NC(c1ccc3c(c1)OCO3)CC(c1ccc(Cl)cc1)=N2 | clinical isolate | MIC | MNT1408 | MTT / broth dilution / absorbance | >32 µg/mL |
| CCS/C(N)=N/N=C/c1ccc2cc(Cl)ccc2n1 | - | MIC | CNCTC D38/92 | - | 63 µM |
| Cc1c(F)c(N2CCNC(C)C2)cc2c1c(=O)c(C(=O)O)cn2C1CC1 | - | MIC90 | - | - | 12.5 µg/mL |
| COc1cc2ccnc3c2c(c1OC(=O)c1cccc(C)c1)N(C)C=C3 | - | EC50 | - | - | 4 µg/mL |
| COc1ccc(C2=Nc3c(N)nc(N)nc3NC(c3ccc4c(c3)OCO4)C2)cc1 | clinical isolate | MIC | MNT1408 | MTT / broth dilution / absorbance | >32 µg/mL |
| CO[C@H]1/C=C/O[C@@]2(C)Oc3c(C)c(O)c4c(O)c(c5c(c4c3C2=O)NC2(CCN(CC(C)C)CC2)N=5)=NC(=O)/C(C)=C\C=C\[C@H](C)[C@H](O)[C@@H](C)[C@@H](O)[C@@H](C)[C@H](OC(C)=O)[C@@H]1C | - | MIC | N-481 (HIV-) | - | 0.25 µg/mL |
| CCCCCCS/C(N)=N/N=C/c1ccc2ccccc2n1 | - | MIC | CNCTC D38/92 | - | 63 µM |
| Clc1ccc2c(c1)nc1cc(Nc3ccccc3)c(=NC3CCCCC3)cc-1n2-c1ccccc1 | - | MIC | P2 | - | 1 µg/mL |
| CO[C@H]1/C=C/O[C@@]2(C)Oc3c(C)c(=O)c4c(O)c(c5oc6cc(N7CCCCCC7)ccc6nc5c4c3C2=O)NC(=O)/C(C)=C\C=C\[C@H](C)[C@H](O)[C@@H](C)[C@@H](O)[C@@H](C)[C@H](OC(C)=O)[C@@H]1C | - | MIC | Shibazaki | - | 2.5 µg/mL |
| CO[C@H]1/C=C/O[C@@]2(C)Oc3c(C)c(O)c4c(O)c(c(/C=N/N5CCN(C6CCCC6)CC5)c(O)c4c3C2=O)NC(=O)/C(C)=C\C=C\[C@H](C)[C@H](O)[C@@H](C)[C@@H](O)[C@@H](C)[C@H](OC(C)=O)[C@@H]1C | - | MIC50 | 21 strains | - | 0.5 µg/mL |
| CCCCCCCCOC(=O)c1cnccn1 | - | MBC | ATCC 13950 | - | 200 µg/mL |
| COc1cc(NC(C)CCCN)c2nc(C(C)(C)C)ccc2c1Oc1cccc(C(F)(F)F)c1 | - | MBC | - | - | 5 µg/mL |

For reference, 7 entries again:

{"compound": "COc1ccc(/C=N/N(C(=O)c2ccncc2)C(=O)c2cnccn2)cc1", "read-out": "MIC", "strain or isolate": "ATCC 13950", "result": ">16 µg/mL"}
{"compound": "C/C=C(/C)C(=O)Oc1ccc(OC)cc1C1OC1C", "read-out": "MIC", "strain or isolate": "ATCC 19709", "result": "5 µg/mL"}
{"compound": "N[C@@H]1CN(c2c(F)cc3c(=O)c(C(=O)O)cn([C@@H]4C[C@@H]4F)c3c2Cl)CC12CC2", "read-out": "MIC", "result": "6.25 µg/mL"}
{"compound": "COc1cccc(C(=O)Oc2c(OC)cc3ccnc4c3c2N(C)C=C4)c1", "read-out": "EC50", "result": "10 µg/mL"}
{"compound": "CO[C@H]1/C=C/O[C@@]2(C)Oc3c(C)c(=O)c4c(O)c(c5oc6cc(N7CCCC7)ccc6nc5c4c3C2=O)NC(=O)/C(C)=C\\C=C\\[C@H](C)[C@H](O)[C@@H](C)[C@@H](O)[C@@H](C)[C@H](OC(C)=O)[C@@H]1C", "read-out": "MIC90", "result": "2.5 µg/mL"}
{"compound": "CO[C@H]1/C=C/O[C@@]2(C)Oc3c(C)c(O)c4c(O)c(c5c(c4c3C2=O)NC2(CCN(CC(C)C)CC2)N=5)=NC(=O)/C(C)=C\\C=C\\[C@H](C)[C@H](O)[C@@H](C)[C@@H](O)[C@@H](C)[C@H](OC(C)=O)[C@@H]1C", "read-out": "MIC", "strain or isolate": "N-481 (HIV-)", "result": "0.25 µg/mL"}
{"compound": "CO[C@H]1/C=C/O[C@@]2(C)Oc3c(C)c(O)c4c(O)c(c(/C=N/N5CCN(C6CCCC6)CC5)c(O)c4c3C2=O)NC(=O)/C(C)=C\\C=C\\[C@H](C)[C@H](O)[C@@H](C)[C@@H](O)[C@@H](C)[C@H](OC(C)=O)[C@@H]1C", "read-out": "MIC50", "strain or isolate": "21 strains", "result": "0.5 µg/mL"}

ECn: concentration that inhibits the pathogen or its effect by n%. Rows are shuffled and stem from different studies. An empty or dashed field is not shown.